Measured values as given in patent EP4821928A1, “BICYCLIC HETEROCYCLIC COMPOUND AND FUNGICIDE FOR AGRICULTURAL AND HORTICULTURAL USE CONTAINING SAME AS ACTIVE INGREDIENT” (dated 2026).

Legend:
[1] = test system: Gray mold fungus (Botrytis cinerea); assay: Gray mold anti-germ test (Test Example C); details: for Gray mold anti-germ test (rate of inhibition): 50 ppm/well, Czapek-dox broth, 25°C for 3 days, absorbance 600 nm; for rate of inhibition: Test Example C, gray mold anti-germ test
Experimental: (§1) Gray mold fungus (Botrytis cinerea) Conidia were suspended in Czapek-dox broth and a suspension of 1 × 10^5 spores were prepared. The prepared spore suspension was seeded at 100 µl/well to a 96-well multiplate. In the test, each compound was dissolved in a dimethyl sulfoxide-methanol mixed solution (volume ratio: 9/1) and dispensed at 50 ppm/well. The absorbance of each well was measured at a wavelength of 600 nm using a photometer. The multiplate was incubated at 25°C for 3 days, followed by absorbance measurement again. The difference in absorbance between the treatment day and 3 days later was calculated, and the rate of inhibition was calculated from the ratio between the treatment group and the non-treatment group.

[2] = test system: Speckled leaf blotch fungus (Septoria tritici); assay: Speckled leaf blotch anti-germ test (Test Example F); details: for Speckled leaf blotch anti-germ test (rate of inhibition): 50 ppm/well, Czapek-dox broth, 25°C for 3 days, absorbance 600 nm; for rate of inhibition: Test Example F, speckled leaf blotch anti-germ test
Experimental: as §1, with “Speckled leaf blotch” for “Gray mold”, “(Septoria tritici)” for “(Botrytis cinerea)”

[3] = test system: Magnaporthe grisea; assay: Rice blast disease pot test (Test Example A); details: for Rice blast disease pot test (control value): 250 ppm sprayed, 2.5 ml/pot, rice variety Sachikaze, degree of disease development 6 to 8 days after inoculation; for control value: Test Example A, rice blast disease pot test
Experimental: Seeds of test plants (rice variety: Sachikaze) were planted and then cultivated until the second leaves appeared. In the test, each synthesized compound was dissolved in a dimethyl sulfoxide-methanol mixed solution (volume ratio: 9/1) and diluted into a concentration of 250 ppm with ion exchange water to obtain a chemical. The obtained chemical was sprayed to the test plants (2.5 ml/pot). After drying of the chemical, the plants were inoculated by spraying of 3 to 5 × 10^4 organisms/ml of a conidium suspension of Magnaporthe grisea. The plants thus inoculated were left at room temperature of 23 to 25°C in a moist chamber for approximately 24 hours to promote the onset of the disease. The degree of disease development was investigated 6 to 8 days after inoculation, and effects of the chemical were evaluated.
(§2) The degrees of disease development in these Test Examples were evaluated by 0.05 when the degree of disease development in a plant having no onset of the disease was defined as 0 and the degree of disease development in a plant in a group without chemical treatment was defined as 3. From the degree of disease development, a control value was calculated according to the following expression.
(§3) Control value = 100{1−(n/3)} [formula] N = Degree of disease development in each chemical treatment group.

[4] = test system: Botrytis cinerea; assay: Tomato gray mold pot test (Test Example B); details: for Tomato gray mold pot test (control value): 250 ppm sprayed, 2.5 ml/pot, tomato variety Oogata Fukuju, degree of disease development 2 to 3 days after inoculation; for control value: Test Example B, tomato gray mold pot test
Experimental: Seeds of test plants (tomato variety: Oogata Fukuju) were planted and then cultivated until three first leaves appeared. In the test, each compound was dissolved in a dimethyl sulfoxide-methanol mixed solution (volume ratio: 9/1) and diluted into a concentration of 250 ppm with ion exchange water to obtain a chemical. The obtained chemical was sprayed to the test plants (2.5 ml/pot). After drying of the chemical, the plants were inoculated by spraying of 3 to 6 × 10^5 organisms/ml of a conidium suspension of Botrytis cinerea. The plants thus inoculated were left at room temperature of 23 to 25°C in a moist chamber for approximately 48 hours to promote the onset of the disease. The degree of disease development was investigated 2 to 3 days after inoculation, and effects of the chemical were evaluated.
as §2, §3

[5] = test system: Anthracnose fungus (Glomerella cingulata); assay: Anthracnose anti-germ test (Test Example E); details: for Anthracnose anti-germ test (rate of inhibition): 50 ppm/well, Czapek-dox broth, 25°C for 3 days, absorbance 600 nm; for rate of inhibition: Test Example E, anthracnose anti-germ test
Experimental: as §1, with “The” for “Gray mold fungus (Botrytis cinerea) Conidia were suspended in Czapek-dox broth and a suspension of 1 × 10^5 spores were prepared. The”

[6] = test system: Fusarium blight fungus (Fusarium graminearum); assay: Fusarium blight anti-germ test (Test Example D); details: for Fusarium blight anti-germ test (rate of inhibition): 50 ppm/well, Czapek-dox broth, 25°C for 3 days, absorbance 600 nm; for rate of inhibition: Test Example D, Fusarium blight anti-germ test
Experimental: as §1, with “Fusarium blight” for “Gray mold”, “(Fusarium graminearum)” for “(Botrytis cinerea)”

SMILES	Gray mold anti-germ test (rate of inhibition) [1]	Speckled leaf blotch anti-germ test (rate of inhibition) [2]	Rice blast disease pot test (control value) [3]	Tomato gray mold pot test (control value) [4]	Anthracnose anti-germ test (rate of inhibition) [5]	Fusarium blight anti-germ test (rate of inhibition) [6]	rate of inhibition [1]	rate of inhibition [2]	control value [3]	control value [4]	rate of inhibition [5]	rate of inhibition [6]
Cc1ccc2c(ncn2C2=NC(C)(C)Oc3cc(NC(=O)OC(C)(C)C)ccc32)c1C	H (H represents a control value or rate of inhibition of larger than 50%)	H (H represents a control value or rate of inhibition of larger than 50%)	L (L represents a control value or rate of inhibition of 50% or less)	L (L represents a control value or rate of inhibition of 50% or less)	H (H represents a control value or rate of inhibition of larger than 50%)	L (L represents a control value or rate of inhibition of 50% or less)	–	–	–	–	–	–
Cc1ccc2c(ncn2C2=NC(C)(C)Oc3ccccc32)c1C	H (H represents a control value or rate of inhibition of larger than 50%)	H (H represents a control value or rate of inhibition of larger than 50%)	H (H represents a control value or rate of inhibition of larger than 50%)	H (H represents a control value or rate of inhibition of larger than 50%)	H (H represents a control value or rate of inhibition of larger than 50%)	H (H represents a control value or rate of inhibition of larger than 50%)	–	–	–	–	–	–
COCC1(C)N=C(c2cnn3c(C)cccc23)c2ccccc2S1 (stereo not drawn)	–	–	–	–	–	–	H (H represents a control value or rate of inhibition of larger than 50%)	H (H represents a control value or rate of inhibition of larger than 50%)	H (H represents a control value or rate of inhibition of larger than 50%)	H (H represents a control value or rate of inhibition of larger than 50%)	H (H represents a control value or rate of inhibition of larger than 50%)	H (H represents a control value or rate of inhibition of larger than 50%)
CCNc1ccc2c(c1)OC(C)(C)N=C2n1cnc2c(C)c(C)ccc21	H (H represents a control value or rate of inhibition of larger than 50%)	H (H represents a control value or rate of inhibition of larger than 50%)	H (H represents a control value or rate of inhibition of larger than 50%)	H (H represents a control value or rate of inhibition of larger than 50%)	H (H represents a control value or rate of inhibition of larger than 50%)	H (H represents a control value or rate of inhibition of larger than 50%)	–	–	–	–	–	–
CCOCC1(C)N=C(c2cnn3cc(C)ccc23)c2ccccc2O1 (stereo not drawn)	–	–	–	–	–	–	H (H represents a control value or rate of inhibition of larger than 50%)	H (H represents a control value or rate of inhibition of larger than 50%)	H (H represents a control value or rate of inhibition of larger than 50%)	H (H represents a control value or rate of inhibition of larger than 50%)	H (H represents a control value or rate of inhibition of larger than 50%)	H (H represents a control value or rate of inhibition of larger than 50%)
Cc1ccc2c(c1)OC(C)(CS(C)(=O)=O)N=C2n1cnc2c(C)c(C)ccc21 (stereo not drawn)	H (H represents a control value or rate of inhibition of larger than 50%)	L (L represents a control value or rate of inhibition of 50% or less)	H (H represents a control value or rate of inhibition of larger than 50%)	H (H represents a control value or rate of inhibition of larger than 50%)	H (H represents a control value or rate of inhibition of larger than 50%)	H (H represents a control value or rate of inhibition of larger than 50%)	–	–	–	–	–	–
Cc1ccc2c(ncn2C2=NC(C)(C)Oc3c(F)cccc32)c1C	H (H represents a control value or rate of inhibition of larger than 50%)	L (L represents a control value or rate of inhibition of 50% or less)	H (H represents a control value or rate of inhibition of larger than 50%)	H (H represents a control value or rate of inhibition of larger than 50%)	H (H represents a control value or rate of inhibition of larger than 50%)	H (H represents a control value or rate of inhibition of larger than 50%)	–	–	–	–	–	–
COc1ccc2c(c1)OC(C)(C)N=C2n1cnc2c(C)c(C)ccc21	H (H represents a control value or rate of inhibition of larger than 50%)	H (H represents a control value or rate of inhibition of larger than 50%)	H (H represents a control value or rate of inhibition of larger than 50%)	H (H represents a control value or rate of inhibition of larger than 50%)	H (H represents a control value or rate of inhibition of larger than 50%)	H (H represents a control value or rate of inhibition of larger than 50%)	–	–	–	–	–	–
Cc1cc(C)c2c(c1)C(n1cnc3c(C)c(C)ccc31)=NC(C)(C)O2	H (H represents a control value or rate of inhibition of larger than 50%)	H (H represents a control value or rate of inhibition of larger than 50%)	H (H represents a control value or rate of inhibition of larger than 50%)	H (H represents a control value or rate of inhibition of larger than 50%)	H (H represents a control value or rate of inhibition of larger than 50%)	H (H represents a control value or rate of inhibition of larger than 50%)	–	–	–	–	–	–
CCCC1(CC)N=C(c2cnn3ccccc23)c2ccccc2O1 (stereo not drawn)	–	–	–	–	–	–	H (H represents a control value or rate of inhibition of larger than 50%)	H (H represents a control value or rate of inhibition of larger than 50%)	H (H represents a control value or rate of inhibition of larger than 50%)	H (H represents a control value or rate of inhibition of larger than 50%)	H (H represents a control value or rate of inhibition of larger than 50%)	H (H represents a control value or rate of inhibition of larger than 50%)
